The values that follow come from PMC6222832, “Kinetic Characterization of Novel HIV-1 Entry Inhibitors: Discovery of a Relationship between Off-Rate and Potency” (Molecules : A Journal of Synthetic Chemistry and Natural …, 2018).

For this assay, the target named is B41 SOSIP.664 gp140 trimer (Human immunodeficiency virus type 1, UniProt B3UES2, A505C/E513R/I563P/INS515RR/K514R/T609C). As to the kind of experiment: SPR direct interaction analysis, Biacore 8K. Also noted: species or system HIV-1. Particulars: calculated from rate constants, 1:1 binding model.

For `COc1cnc(-n2cnc(C)n2)c2[nH]cc(C(=O)C(=O)N3CC4CN(C(=O)c5ccccc5)CC4C3)c12` (stereo not shown) [SC11], the Kd is 66.3 nM.

With `COc1cnc(-n2cnc(C)n2)c2[nH]cc(C(=O)C(=O)N3CC(CSC(=O)c4ccccc4)C3)c12` [SC16], the equilibrium dissociation constant (Kd) was 69.3 nM. Turning to `COc1cnc(-n2cnc(C)n2)c2[nH]cc(C(=O)C(=O)N(C)C3CN(C(=O)c4ccccc4)C3)c12` [SC18], the dissociation constant Kd was 1560 nM. In the case of `COc1cnc(-n2cnc(C)n2)c2[nH]cc(C(=O)C(=O)N3CC4C=NN(c5nnnn5-c5ccccc5)C4C3)c12` (stereo not shown) [SC39] it was 27400 nM.

As usually defined, the Kd is the equilibrium constant for the complex coming apart.
